Measurements reported in PubChem BioAssay AID1259414 (Drosophila RNAi Screening Center, 2018)

- Purpose: 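Fly genes that alter Wolbachia amount inside host cells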 (primary screen)
- System: Drosophila JW18 cells infected with Wolbachia
- Knock-down reagent: long dsRNA against Drosophila genes, 0.25 µg dsRNA per well of a 384-well plate
- Duration: 5 days
- Treatment: cells persistently infected with Wolbachia before knock-down; no added drug
- Detection: 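Automated imaging of bacterial rRNA staining divided by host cell count, reported as plate-normalised robust z-score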
- Reading the numbers: Wolbachia per cell robust z: higher = more Wolbachia per host cell than the plate typical
- Call rule: 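Hit when robust z is 1.5 or more, or -1.5 or less, in at least two of three replicates; excludes dsRNAs with several or no targets, genes not expressed in JW18 and well A1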
The screen tested about 24,000 reagents; below is an unselected part of those with a known target gene and a result. Over the whole deposit, about 1,210 (5%) are marked active. 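Inactive calls also include excluded dsRNAs with several or no targets, genes unexpressed in JW18, and well A1, regardless of score.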 Names joined by + are all predicted targets of the reagent. Reagent sequences are not shown.

The opening 2 entries, to show the layout:
{"target gene": "hb", "amplicon": "DRSC16963", "Wolbachia per cell robust z, rep 1": -0.203, "Wolbachia per cell robust z, rep 2": 0.839, "Wolbachia per cell robust z, rep 3": 1.11, "Outcome": "inactive"}
{"target gene": "hb", "amplicon": "DRSC27856", "Wolbachia per cell robust z, rep 1": 0.0646, "Wolbachia per cell robust z, rep 2": -0.574, "Wolbachia per cell robust z, rep 3": -1.13, "Outcome": "inactive"}

The list itself, from the first entry:
{"target gene": "hb", "amplicon": "DRSC16963", "Wolbachia per cell robust z, rep 1": -0.203, "Wolbachia per cell robust z, rep 2": 0.839, "Wolbachia per cell robust z, rep 3": 1.11, "Outcome": "inactive"}
{"target gene": "hb", "amplicon": "DRSC27856", "Wolbachia per cell robust z, rep 1": 0.0646, "Wolbachia per cell robust z, rep 2": -0.574, "Wolbachia per cell robust z, rep 3": -1.13, "Outcome": "inactive"}
{"target gene": "CG13950", "amplicon": "DRSC00368", "Wolbachia per cell robust z, rep 1": -1.12, "Wolbachia per cell robust z, rep 2": -4.09, "Wolbachia per cell robust z, rep 3": 0.125, "Outcome": "inactive"}
{"target gene": "CG13950", "amplicon": "DRSC27405", "Wolbachia per cell robust z, rep 1": -3.99, "Wolbachia per cell robust z, rep 2": -1.74, "Wolbachia per cell robust z, rep 3": -0.333, "Outcome": "inactive"}
{"target gene": "l(3)76BDm", "amplicon": "DRSC11047", "Wolbachia per cell robust z, rep 1": -0.149, "Wolbachia per cell robust z, rep 2": -0.131, "Wolbachia per cell robust z, rep 3": 0.264, "Outcome": "inactive"}
{"target gene": "CG12768", "amplicon": "DRSC23215", "Wolbachia per cell robust z, rep 1": -0.0112, "Wolbachia per cell robust z, rep 2": 0.93, "Wolbachia per cell robust z, rep 3": -0.958, "Outcome": "inactive"}
{"target gene": "CG12768", "amplicon": "DRSC28549", "Wolbachia per cell robust z, rep 1": 0.874, "Wolbachia per cell robust z, rep 2": 0.494, "Wolbachia per cell robust z, rep 3": 1.54, "Outcome": "inactive"}
{"target gene": "CG31463", "amplicon": "DRSC14346", "Wolbachia per cell robust z, rep 1": 1.3, "Wolbachia per cell robust z, rep 2": 0.19, "Wolbachia per cell robust z, rep 3": -0.0575, "Outcome": "inactive"}
{"target gene": "CG31463", "amplicon": "DRSC26552", "Wolbachia per cell robust z, rep 1": -2.59, "Wolbachia per cell robust z, rep 2": -1.75, "Wolbachia per cell robust z, rep 3": 0.0325, "Outcome": "inactive"}
{"target gene": "MED23 + CG3700", "amplicon": "DRSC04406", "Wolbachia per cell robust z, rep 1": -2.5, "Wolbachia per cell robust z, rep 2": -4.59, "Wolbachia per cell robust z, rep 3": 0.889, "Outcome": "active"}
{"target gene": "MED23 + CG3700", "amplicon": "DRSC04407", "Wolbachia per cell robust z, rep 1": 0.599, "Wolbachia per cell robust z, rep 2": 1.02, "Wolbachia per cell robust z, rep 3": 0.985, "Outcome": "inactive"}
{"target gene": "CG6425", "amplicon": "DRSC16038", "Wolbachia per cell robust z, rep 1": 1.13, "Wolbachia per cell robust z, rep 2": 4.06, "Wolbachia per cell robust z, rep 3": -0.593, "Outcome": "inactive"}
